This series has as its system AbiEi (Streptococcus agalactiae). As to the kind of experiment: EMSA. The settings on record: positive co-operativity; recombinant protein; protein details: His6-SUMO removed by SENP, untagged; label: 5' 6-FAM on strand 2.

Construct, isoform or probe ends are uncertain for at least one entry.

Take “AAAAGAAAATGTTGCTTTTATACCACAAATATTGTAAAATTGTAGTGTAAAAGCAACAAGTGGGGGGCCGTAAGCTTTTGTCAGTGCGCA (double strand) [PabiEi -1 to -71 WT (IR1-IR2, TRB1061)]”: the binding result is recorded as “binds”.
